Screening data, single-dose tests

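Whole-cell growth test on Mycobacterium tuberculosis, read after 3 days in glucose-containing 7H9 medium; the read-out is not stated. Tested at 50 µM. The record gives no direction; compounds that gave an IC50 in retests scored well above the rest, so higher reads as more growth inhibition. About 69,000 compounds were tested under these conditions; 1.1% (about 760) showed 50% or more at least once.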

The filed quantity is “Percent Effect” (%). The controls that fix the scale are not given in the record; negative values are as filed. Many other results are left out here, so strong results are more common than in the screen. Two or more numbers in one place are separate tests of the same structure; such repeats can differ widely.

| compound | Percent Effect |
|---|---|
| `Cl.Nc1ccc(-c2cnc(C3CCCN3)cn2)cn1` (stereo not given) | 8.63% |
| `C=Cc1ccc(CN2C(=O)C3(CCNCC3)Nc3ccccc32)cc1` | 85.39% |
| `CCc1noc(CN2CCC(c3ccnn3CCO)CC2)n1` | 20.63% |
| `Cc1nc(CN2CCN(CCCc3nc4ccccc4o3)CC2)no1` | -22.36% |
| `COc1ccc(C(C)=O)cc1CN1CCn2cccc2C1C` (stereo not given) | 19.53% |
| `O=C(c1nnn(-c2ccc(C(F)(F)F)cc2)n1)N1CCC(O)CC1` | 42.68% & 25.65% |
| `CC(C)N(C)S(=O)(=O)N(C)Cc1ccc2c(c1)OCO2` | 23.74% |
| `CSc1nsc(NC(=O)N(C)Cc2ccc3c(c2)OCO3)n1` | 26.86% |
| `O=C(CCN1CCCN(c2nccs2)CC1)NCC1CCCCC1` | -12.03% |
| `Cc1cc(N2CCOC(CN)C2)nc(-c2ccccc2)n1` (stereo not given) | 8.633% |
| `Cc1ccc(-n2nnc(C(=O)NCC3CCCCC3)n2)cc1` | 8.106% & -4.949% |
| `CCC[C@H]1CN(S(=O)(=O)c2ccccc2)C[C@@H]1N` | -3.034% |
| `O=C(COC1CCCC1)NCCc1nc(-c2ccccn2)cs1` | 14.91% |
| `CC(C)c1cccc(S(=O)(=O)NCCCN2CCC(O)CC2)c1` | 5.704% & 6.126% |
| `Clc1ccc(C2(CNC3=NCCN3)CCCC2)cc1.I` | 55.47% |
| `CC(C1CC1)N(C)Cc1nnc(-c2ccco2)o1` (stereo not given) | 23.71% & 40.96% |
| `COc1ccccc1N1CCC(CNCc2cccc(O)c2)C1` (stereo not given) | 35.5% |
| `CC(Cn1cccn1)NCc1nc(-c2cccc(Cl)c2)no1` (stereo not given) | 32.43% |
| `CCNC(=O)NC(=O)CN(CC(C)O)c1ccccc1` (stereo not given) | 30.28% |
| `O=C(c1cc(Cl)c[nH]1)N(CCCO)Cc1cccnc1` | 0.6472% |
| `CC1c2ccsc2CCN1Cc1cc2c(cc1O)OCO2` (stereo not given) | 10.31% |
| `CCCN1CCC(Nc2cc(-c3ccccc3)ccc2OC)CC1` | 71.32% |
| `CCOC(=O)N1CCN(C(=O)C2CC(=O)N(c3ccccc3Br)C2)CC1` (stereo not given) | 59.44% |
| `COc1cccc(CCC(=O)N2CCN(CC(C)(C)O)CC2)c1` | -29.88% |
| `COc1ccc(S(=O)(=O)NCCC(O)c2ccccc2)c(C)c1` (stereo not given) | 5.783% & 8.26% |
| `CCC1(CO)CCCN(C(=O)c2ccc(N3CCN(C)CC3)cc2)C1` (stereo not given) | 19.2% |
| `Cc1cnn(CC2CCCN2Cc2ncc(-c3ccccc3)o2)c1` (stereo not given) | -8.824% |
| `NCCc1nc(N(Cc2cncs2)C2CC2)c2ccccc2n1` | -7.703% |
| `O=S(=O)(NCCNc1cc(-n2cccc2)ncn1)c1cccs1` | 38.3% & 19.77% |
| `COc1cc(Oc2ccc(C(F)(F)F)cn2)ccc1CN1CCCC1` | 72.4% |
| `CC(C)Nc1nc(N2CCOCC2)nc2c1CN(Cc1ccoc1)CC2` | 33.5% |
| `CCN1CC2(CCC1=O)CCN(Cc1cscn1)CC2` | -7.781% |
| `COc1cccc(O)c1CN1CCCC(Nc2cccc(F)c2)C1` (stereo not given) | 2.563% & 20.21% |
| `CCc1cn[nH]c1C1CCN(c2cc(C)c3ccc(OC)cc3n2)CC1` | 18.96% |
| `Cc1nc(CNC(=O)NC(C)c2ccc3c(c2)OCCO3)cs1` (stereo not given) | -20.48% |
| `Cc1nc(CN2CCCC(CCc3ccccc3C(F)(F)F)C2)co1` (stereo not given) | 9.896% |
| `CN1CCOC[C@H]1c1nc(-c2ccccc2)c[nH]1` | 0.9532% & 3.666% |
| `Cc1sc(Br)cc1S(=O)(=O)NCc1ccccn1` | 50.74% |
| `CO[C@H]1CCN(C(=O)c2cc(C)on2)C[C@@H]1Cc1ccccc1` | 9.553% |
| `CC(C)Oc1ccc(CNC(=O)C2CCS(=O)(=O)C2)cn1` (stereo not given) | -40.29% |
| `CCc1nc(C2CCCN2c2ncc(C(F)(F)F)cc2Cl)no1` (stereo not given) | 26.74% & 29.88% |
| `CC(C)(C)C(=O)NS(=O)(=O)c1ccc(C#N)c(C(F)(F)F)c1` | 5.089% |
| `CN(Cc1nnc(C2CC2)o1)Cc1ccccc1-c1ccccc1` | 69.55% & 45.52% |
| `Cc1nccn1CCCn1cncc1-c1ccc2c(c1)CC(C)N2C.Cl` (stereo not given) | 21.81% |
| `O=C(NCc1cccnc1)NCC(O)c1cccc(C(F)(F)F)c1` (stereo not given) | -4.499% |
| `Cc1nc2c(c(N3CCN(c4ncccc4C(N)=O)CC3)n1)CCNC2` | 12.31% |
| `Cc1cccc(-c2nnc(C(C)N3CCn4c(C)nnc4C3)o2)c1` (stereo not given) | 69.39% |
| `Cc1cc(C)nc(N2CCC(C(=O)Nc3ccc(C(C)C)cc3)CC2)n1` | -6.855% |
| `CCOc1cccc(C(=O)Nc2ccncc2)c1` | -9.741% |
| `OCC1COCCN(c2ncccc2C(F)(F)F)C1` (stereo not given) | 20.44% |
| `CN(C(=O)CC1=CCCCC1)C1CCCN(CCc2ccccc2)C1` (stereo not given) | 1.74% & 11.3% |
| `CCC1CN(CC(=O)NCCN2CCCCC2)c2ccccc2S1` (stereo not given) | 36.18% |
| `CCN(Cc1cc(F)c(OC)c(Cl)c1)Cc1nc(COC)no1` | 21.34% |
| `COc1cc(Oc2ccc(C#N)cn2)ccc1CN1CCCC1` | 45.31% |
| `O=C(O)C(F)(F)F.c1cncc(-c2ccc3c(c2)C2(CC3)CCN(c3nncs3)CC2)c1` | -0.8087% |
| `CC(=O)Nc1ccc(CNC2CCCSC2)cc1` (stereo not given) | 2.392% |
| `Cc1cc(N2CCC(CO)(CC3CCCCO3)CC2)nc2ccccc12` (stereo not given) | -21.09% & 11.18% |
| `CC(C)OCCOCc1cccc(NC(=O)NCc2ccncc2)c1` | -53.24% |
| `C=Cc1ccc(CN2CCCC3(CNC(=O)c4ccccc4O3)C2)cc1` (stereo not given) | -0.3033% |
| `Cc1noc(CCCC(=O)NC(C)c2ccc(Cl)s2)n1` (stereo not given) | 50.24% |
| `O=C(NCC1SCCc2ccccc21)c1cscn1` (stereo not given) | 33.38% |
| `COC(=O)CSCc1noc(-c2ccc(Cl)cc2)n1` | 60.14% & 56.09% |
| `CC(=O)N1CCC(n2ccc(-c3cnc(N4CCOCC4)nc3)n2)CC1` | 2.475% |

Measurements from “University of Dundee, Small-Polar-MMV Screening Library” (2021), ChEMBL document CHEMBL3988442.